Drawing on patent US20240382586A1, this text covers % inhibition of Omicron BA.1 for one substance.

In the assay the target is SARS-CoV-2 spike, Omicron BA.1 variant (neutralisation assay) (SARS-CoV-2). Put plainly: cell-based or functional assay.

Sotrovimab (antibody) returned a % inhibition of Omicron BA.1 at 1 ug/ml of 61%.
